A mixed list of measured activities; the numbers were collected in NIAID ChemDB.

Common to all: target-level tests; agent: HIV-1; protein: Integrase; read-out: IC50

Blank or dashed fields: not listed here. ICn: concentration for n% inhibition. Two numbers with a dash give a range or band. Rows are shuffled and stem from different studies.

{"smiles": "C=CCn1c(=O)c(C(=O)Nc2ccccc2OC)c(O)c2ccccc21", "method": "3′ processing", "value": ">100 µM"}
{"smiles": "CN(C)C(=O)CNC(=O)c1cn2ccn(Cc3cccc(Cl)c3)c(=O)c2c(O)c1=O", "method": "ELISA", "value": "0.01–0.1 µM"}
{"smiles": "O=C(/C=C/c1cccnc1)/C=C/c1cccnc1", "value": "5 µM"}
{"smiles": "CN1CC(O)C(C)(C)Cn2c(c3cnn(Cc4ccc(F)cc4)c(=O)c3c(O)c2=O)C1=O", "method": "strand transfer", "value": "0.006 µM"}
{"smiles": "O=C(NCc1ccc(F)cc1)c1nc2n(c(=O)c1O)CCNC2COCc1ccccc1", "method": "ELISA", "value": "<10 µM"}
{"smiles": "COc1c(O)c2c3c(c1O)C(=O)C1(O)C(=C3C(C)=C(Cc3c(O)ccc(C(C)=O)c3O)C2=O)O[C@@H](C)C1(C)C", "method": "strand transfer", "value": "7.9 µM"}
{"smiles": "CCOC(=O)c1cn2c(c1O)C(=O)N(Cc1ccccc1)CC2", "method": "strand transfer", "value": "<0.7 µM"}
{"smiles": "C=Cc1cccnc1/C=C/C(=O)/C=C/c1ncccc1C=C", "value": "7.9 µM"}
{"smiles": "Cc1ccc(Cn2c3ccccc3c3cc(C(=O)NO)ncc32)cc1", "method": "strand transfer", "value": ">50 µM"}
{"smiles": "O=C(OC(Cc1ccc(O)c(O)c1)C(=O)O)c1cc(-c2ccc(O)c(O)c2)c2cc(O)c(O)cc2c1", "method": "strand transfer", "value": "1.5 µM"}
{"smiles": "Cc1cc(S(=O)(=O)/[NH+]=C2/N=C3C=C(c4ccccc4)SC3C(=O)N2Cc2ccccc2)c(S)cc1Cl", "method": "3′ processing", "value": "9 µM"}
{"smiles": "CN(C)C(=O)c1c2c(c(O)c(=O)n1C)C(=O)N(Cc1ccc(F)cc1)CC2", "method": "strand transfer", "value": "<1 µM"}
{"smiles": "CSc1ccccc1CNC(=O)c1nc2n(c(=O)c1O)CN(C)C2(C)C", "method": "ELISA", "value": "<10 µM"}
{"smiles": "CN(C)CCCn1cc(C(=O)O)c(=O)c2ccc(Nc3nc(-c4cc(-c5ccccc5)no4)cs3)cc21", "method": "3′ processing", "value": "0.297 µM"}
{"smiles": "CC(C)Oc1cc(Cl)cc(CN2CCn3cc(-c4nccs4)c(=O)c(O)c3C2=O)c1", "method": "ELISA", "value": "0.01–0.1 µM"}
{"smiles": "CCOC(=O)c1cn2c(c1O)C(=O)N(Cc1ccc(Cl)c(Cl)c1)CC2", "method": "strand transfer", "value": "<1.5 µM"}
{"smiles": "O=C(O)C(=O)/C=C(\\O)c1cn(Cc2ccccc2)c(=O)n(Cc2ccccc2)c1=O", "method": "3′ processing", "value": "3.7 µM"}
{"smiles": "O=S(=O)(O)Oc1cc2c(ccn2S(=O)(=O)O)cc1O", "value": "116 µM"}
{"smiles": "O=c1ccn2ccn(Cc3cccc(Cl)c3O)c(=O)c2c1O", "method": "ELISA", "value": "0.01–0.1 µM"}
{"smiles": "O=C(O)C(=O)/C=C(\\O)c1cn(-c2ccccc2F)c(=O)n(-c2ccccc2F)c1=O", "method": "strand transfer", "value": "<0.6 µM"}
{"smiles": "O=C1/C(=C/c2cc(O)c(O)c(O)c2)CSC/C1=C\\c1cc(O)c(O)c(O)c1", "method": "disintegration", "value": "1.9 µM"}
{"smiles": "O=C(/C=C(\\O)C(=O)O)/C=C(\\O)c1ccccc1Cl", "method": "strand transfer", "value": "220 µM"}
{"smiles": "O=C(NC1CCC1)c1[nH]c(=O)c(O)c2c1CCN(Cc1ccc(F)cc1)C2=O", "method": "strand transfer", "value": "<1 µM"}
{"smiles": "COC(=O)c1cc(-c2cccn2Cc2ccc(F)cc2)on1", "method": "strand transfer", "value": ">1000 µM"}
{"smiles": "O=C(/C=C/c1ncccc1Br)/C=C/c1ncccc1Br", "value": "2 µM"}
{"smiles": "O=C(O)C(=O)/C=C(\\O)c1cc(=O)n(Cc2ccccc2)c(=O)n1Cc1ccccc1", "method": "3′ processing", "value": "62.5 µM"}
{"smiles": "CCOC(=O)c1cn2c(c1O)C(=O)N(Cc1cccc(Cl)c1)CC2", "method": "strand transfer", "value": "<0.7 µM"}
{"smiles": "CCN1C/C(=C\\c2ccc([N+](=O)[O-])c(O)c2)C(=O)/C(=C/c2ccc([N+](=O)[O-])c(O)c2)C1", "method": "strand transfer", "value": ">100 µM"}
{"smiles": "O=C(/C=C/c1ncc(F)cc1F)/C=C/c1ncc(F)cc1F", "value": "12 µM"}
{"smiles": "[N-]=[N+]=NC[C@H]1O[C@@H](n2cnc3c(NC(=O)Nc4ccccc4)ncnc32)[C@H](O)[C@@H]1CC(=O)O", "strain": "NL4-3", "method": "3′ processing", "value": ">10 µM"}
{"smiles": "CN1C/C(=C\\c2ccc([N+](=O)[O-])c(O)c2)C(=O)/C(=C/c2ccc([N+](=O)[O-])c(O)c2)C1", "method": "strand transfer", "value": ">100 µM"}
{"smiles": "CN(C)C(=O)c1c2c(c(O)c(=O)n1C)C(=O)N(Cc1ccc(F)c(Cl)c1)CC2", "method": "strand transfer", "value": "<1 µM"}
{"smiles": "COc1cccc2c1c(/C(O)=C1\\COC(=O)C1=O)cn2Cc1ccc(F)cc1", "strain": "IIIB", "method": "ELISA", "value": ">100 µM"}
{"smiles": "CC(C)(C)C(=O)c1cn2c(c(O)c1=O)C(=O)N(Cc1cccc(Cl)c1)CC2", "method": "ELISA", "value": "0.01–0.1 µM"}
{"smiles": "CC(C)c1c(Cc2ccccc2)n(COCc2ccccc2)c(=O)n(N)c1=O", "method": "strand transfer", "value": ">111 µM"}
{"smiles": "O=C1/C(=C/c2cc(O)c(O)c(O)c2)CNC/C1=C\\c1cc(O)c(O)c(O)c1", "method": "disintegration", "value": "0.5 µM"}
{"smiles": "CCN(CC)CCCC(C)Nc1ccnc2c(OC)c(Cl)ccc12", "method": "strand transfer", "value": ">300 µM"}
{"smiles": "[N-]=[N+]=NC[C@H]1O[C@@H](n2cnc3c(N)ncnc32)[C@H](O)[C@@H]1CC(=O)O", "strain": "NL4-3", "method": "strand transfer", "value": ">10 µM"}
{"smiles": "CCN(CC)CCCC(C)Nc1ccnc2cc(Cl)ccc12", "method": "3′ processing", "value": "30.5 µM"}
{"smiles": "O=C(/C=C/c1nccc2ccccc12)/C=C/c1nccc2ccccc12", "value": "4.5 µM"}
{"smiles": "C=C(C=O)[C@@H]1C[C@@]2(C)C(=CC1=O)[C@H](OC(=O)/C(C)=C\\C(C)CCCC)CC[C@@H]2C(=O)O", "method": "disintegration", "value": "15 µM"}
{"smiles": "CC1=C(C#N)c2nc(N)c(C#N)c(C)c2/C1=C/c1ccc(-c2ccc(O)c(C(=O)O)c2)o1", "method": "strand transfer", "value": "4 µM"}
{"smiles": "O=C1C(=Cc2cc(O)c(O)c(O)c2)C(=O)c2ccccc21", "method": "strand transfer", "value": "0.5 µM"}
{"smiles": "Cn1c(-c2nc(C(=O)NCc3ccc(F)cc3)c(O)c3ncccc23)cc(=O)n(C)c1=O", "method": "strand transfer", "value": "0.0275 µM"}
{"smiles": "O=C(O)C(=O)/C=C(\\O)c1cn(-c2ccc(F)cc2)c(=O)n(-c2ccc(F)cc2)c1=O", "method": "strand transfer", "value": "<0.7 µM"}
{"smiles": "CCN(CC)CCCC(C)Nc1ccnc2cc(OC)ccc12", "method": "3′ processing", "value": ">300 µM"}
{"smiles": "CN(C)C(=O)c1[nH]c(=O)c(O)c2c1CCN(Cc1ccc(F)cc1)C2=O", "method": "strand transfer", "value": "<1 µM"}
{"smiles": "O=C(NCc1ccccc1)c1cn2c(c(O)c1=O)C(=O)N(Cc1ccc(F)cc1)CC2", "method": "ELISA", "value": "0.01–0.1 µM"}
{"smiles": "CN(C)CC1c2nc(C(=O)NCc3ccc(F)cc3)c(O)c(=O)n2CCN1Cc1cocn1", "method": "ELISA", "value": "<10 µM"}
{"smiles": "CCN(CC)CCCC(C)Nc1cncc2cc(F)ccc12", "method": "strand transfer", "value": ">300 µM"}
{"smiles": "CCCCCCCCCCCCCCCC(=O)NC1C(COP(=O)(O)OC2CC(COP(=O)(O)OC3C(O)C(CO)OC3n3cnc4c(N)ncnc43)OC2n2cnc3c(N)ncnc32)OC(n2cnc3c(N)ncnc32)C1O", "value": ">1000 µM"}
{"smiles": "CN(c1[nH]c(=O)c(O)c2c1CCN(Cc1ccc(F)cc1)C2=O)S(C)(=O)=O", "method": "strand transfer", "value": "<1 µM"}
{"smiles": "Cc1cc(S(=O)(=O)/[NH+]=C2/N=C3C=C(c4ccsc4)SC3C(=O)N2Cc2ccco2)c(S)cc1Cl", "method": "3′ processing", "value": "8 µM"}
{"smiles": "CCN(CC)CCCC(C)Nc1ccnc2ccccc12", "method": "strand transfer", "value": ">300 µM"}
{"smiles": "CNC(=O)NC[C@H]1O[C@@H](n2cnc3c(NC(=O)Nc4ccccc4)ncnc32)[C@H](O[Si](C)(C)C(C)(C)C)[C@@H]1CC(=O)N(C)OC", "strain": "NL4-3", "method": "strand transfer", "value": ">10 µM"}
{"smiles": "CC(=O)N1CCn2c(nc(C(=O)NCc3ccc(F)cc3)c(O)c2=O)C1COCc1ccccc1", "method": "ELISA", "value": "<10 µM"}
{"smiles": "Oc1c(C(=S)NCc2ccc(F)cc2)occc1=S", "method": "3′ processing", "value": "64 µM"}
{"smiles": "O=C(NCCCN1CCN(C(=O)/C=C/c2ccccc2)CC1)c1cc(O)c(O)c(O)c1", "method": "strand transfer", "value": "12.38 µM"}
{"smiles": "CCOC(=O)C1C/C(=C\\c2cc(O)c(O)c(O)c2)C(=O)/C(=C/c2cc(O)c(O)c(O)c2)C1", "method": "strand transfer", "value": "0.3 µM"}
{"smiles": "CC(C)CCC[C@@H](C)[C@H]1CC[C@H]2[C@@H]3CC[C@H]4C[C@@H](CCC=C(c5cc(Cl)c(O)c(C(=O)O)c5)c5cc(Cl)c(O)c(C(=O)O)c5)CC[C@]4(C)[C@H]3CC[C@]12C", "method": "3′ processing", "value": "~100 µM"}
{"smiles": "COC(=O)c1c(Nc2cccc(-c3ccc(OC)c(OC)c3)c2)c2nccnc2n(O)c1=O", "method": "ELISA / strand transfer", "value": "0.22 µM"}
{"smiles": "CNC(=O)c1cc(F)ccc1CN1CCn2cc(-c3nccs3)c(=O)c(O)c2C1=O", "method": "ELISA", "value": "0.1–1 µM"}
{"smiles": "Cc1cc(=O)c(O)c(C(=O)NCc2ccc(F)cc2)o1", "value": "1 µM"}
{"smiles": "CCn1cc(/C(O)=C/C(=O)C(=O)O)c2ccccc21", "method": "strand transfer", "value": "3 µM"}
{"smiles": "NC(=O)c1cn2ccn(Cc3cccc(Cl)c3)c(=O)c2c(O)c1=O", "method": "ELISA", "value": "0.01–0.1 µM"}
{"smiles": "O=C(/C=C/c1ccccn1)/C=C/c1ccccn1", "value": "1.6 µM"}
{"smiles": "CC(C)c1cn(Cc2cccc(Cl)c2)c(=O)c2c(O)c(=O)c(-c3cccc(Cl)c3)cn12", "method": "ELISA", "value": "0.01–0.1 µM"}
{"smiles": "O=C(/C=C/c1cc(Br)ccn1)/C=C/c1cc(Br)ccn1", "value": "5 µM"}
{"smiles": "CCN(CC)CCCC(C)Nc1cncc2ccccc12", "method": "3′ processing", "value": ">300 µM"}

A second listing of 6 rows from above:

smiles | strain | method | value
NC(=O)c1cn2ccn(Cc3cccc(Cl)c3)c(=O)c2c(O)c1=O | - | ELISA | 0.01–0.1 µM
CC1=C(C#N)c2nc(N)c(C#N)c(C)c2/C1=C/c1ccc(-c2ccc(O)c(C(=O)O)c2)o1 | - | strand transfer | 4 µM
CCCCCCCCCCCCCCCC(=O)NC1C(COP(=O)(O)OC2CC(COP(=O)(O)OC3C(O)C(CO)OC3n3cnc4c(N)ncnc43)OC2n2cnc3c(N)ncnc32)OC(n2cnc3c(N)ncnc32)C1O | - | - | >1000 µM
CC(C)CCC[C@@H](C)[C@H]1CC[C@H]2[C@@H]3CC[C@H]4C[C@@H](CCC=C(c5cc(Cl)c(O)c(C(=O)O)c5)c5cc(Cl)c(O)c(C(=O)O)c5)CC[C@]4(C)[C@H]3CC[C@]12C | - | 3′ processing | ~100 µM
O=C(/C=C/c1cc(Br)ccn1)/C=C/c1cc(Br)ccn1 | - | - | 5 µM
CC(C)Oc1cc(Cl)cc(CN2CCn3cc(-c4nccs4)c(=O)c(O)c3C2=O)c1 | - | ELISA | 0.01–0.1 µM